Values quoted from earlier work as cited in PubChem BioAssay AID1811.

Legend:
Assay in all cases: PubChem AID 1811
[1] = biological target: heat-labile enterotoxin b chain; conditions: PDB complex binding affinities from literature; IC50 when reported
[2] = biological target: glutamine synthetase; conditions: PDB complex binding affinities from literature; Ki when reported
[3] = biological target: heat-labile enterotoxin; conditions: PDB complex binding affinities from literature; IC50 when reported

In the case of `Nc1ccc(O[C@H]2O[C@H](CO)[C@H](O)[C@H](O)[C@H]2O)cc1`, the IC50 [1] is given as 12000 µM.
For `CP(=O)(O)CC[C@H](N)C(=O)O`, the Ki [2] is listed as 1 µM.
For `OC[C@H]1O[C@@H](S[C@@H]2O[C@H](CO)[C@H](O)[C@H](O)[C@H]2O)[C@H](O)[C@@H](O)[C@H]1O`, the IC50 [3] is listed as 2000 µM.
